These results are taken from patent EP1369120B1 (priority 2002, dated 2003).

The subject of experiment [1] is HCV sub-genomic replicons (Ava.5). Description: Inhibition of HCV RNA replication in replicon cells, measured by Q-PCR. It counts as cell-based, hepatitis C virus. Conditions: for EC50: 24 hours of drug treatment, HCV RNA (positive-strand), Q-PCR. In general terms: Replicon systems follow genome replication, usually without infectious particles.
The test system of experiment [2] is Huh-7 cells containing HCV sub-genomic replicons (Ava.5). In words: Cell growth inhibition (cytotoxicity) by MTS assay. It counts as cell-based. Conditions: Cytotoxicity on Ava.5 cells, treatment for 24 hours. (Tetrazolium dyes change colour on reduction, which living cells bring about.)

As usually defined, the IC50 is the concentration that gives 50% inhibition. Read a low IC50 as greater potency. Consider Bismuth trioxide, for which the “inhibition of HCV replication” value in experiment [1] (at 2 µM of Bi2O3 treatment, Ava5 cells, 24 hr) is 35 % inhibition of HCV replication at 2 µM of Bi2O3 treatment. Further, the IC50 in experiment [2] was over 10 µM.

By EC50 is commonly meant the concentration at which the effect is half-maximal. A low value points to a more potent agent. Regarding antimony trioxide, the “HCV RNA detected (relative copy number)” value in experiment [1] (2 TM Sb2O3, 24 hr, untreated = 100%) was 20%. In experiment [1] (Ava5 cells), this substance returned a 50% effective concentration (EC50) of 0.8 µM. Also, the IC50 in experiment [2] came to 12.5 µM.

Substance Arsenic iodide registered a 50% effective concentration (EC50) in experiment [1] (Ava5 cells) of 1 µM. Moreover, the IC50 in experiment [2] turned out to be 10 µM.
